Measured values published in publication PMC7179183, “Design of Biphenyl-Substituted Diarylpyrimidines with a Cyanomethyl Linker as HIV-1 NNRTIs via a Molecular Hybridization Strategy” (Molecules, 2020).

Biological target: WT HIV-1 RT (Human immunodeficiency virus type 1 group M subtype B, UniProt P03366)
Assay: Enzymatic assay against WT HIV-1 RT

## Cc1cc(C#N)cc(C)c1Oc1nc(Nc2ccc(C#N)cc2)nc(N)c1Br [ETR, etravirine, reference compound]
  IC50: 9 ± 3 nM
